Measured values from several laboratories, pooled; numbers as filed in NIAID ChemDB.

All rows: tests in culture; species: Mycobacterium avium complex

Neighbouring rows are from separate reports. MIC50, MIC90 and the like: level of inhibition, or share of isolates inhibited. An empty or dashed field is not shown.

compound | endpoint | method | strain or isolate | result
CC(C)N=c1cc2n(-c3ccc(Cl)cc3)c3ccccc3nc-2cc1Nc1ccc(Cl)cc1 | MIC |  | CH-1/HIV+ | 0.5 µg/mL
CC1(CN)CCN(c2c(F)cc3c(=O)c(C(=O)O)cn(C4CC4)c3c2F)C1 | MIC |  | 1988557 | 32 µg/mL
CN[C@@H]1[C@H](O[C@H]2[C@H](O[C@H]3[C@H](O)[C@@H](O)[C@H](N=C(N)N)[C@@H](O)[C@@H]3N=C(N)N)O[C@@H](C)[C@]2(O)C=O)O[C@@H](CO)[C@H](O)[C@H]1O | MIC |  | TMC 1467 | 0.05 µg/mL
CC[C@H]1OC(=O)[C@H](C)[C@@H](O[C@H]2C[C@@](C)(OC)[C@@H](O)[C@H](C)O2)[C@H](C)[C@@H](O[C@@H]2O[C@H](C)C[C@H](N(C)C)[C@H]2O)[C@](C)(OC)C[C@@H](C)C(=O)[C@H](C)[C@@H](O)[C@]1(C)O | MIC |  | 1056 | 2 µg/mL
CC[C@@H](CO)NCCN[C@@H](CC)CO | MIC |  | N-251 (HIV-) | 16 µg/mL
NC[C@H]1O[C@H](O[C@H]2[C@H](O)[C@@H](O[C@H]3O[C@H](CO)[C@@H](O)[C@H](N)[C@H]3O)[C@H](N)C[C@@H]2N)[C@H](O)[C@@H](O)[C@@H]1O | MIC |  | Isolate 49 | 6.25 µg/mL
CC(C)N1CCN(c2c(F)cc3c(=O)c(C(=O)O)cn(C4CC4)c3c2F)CC1 | MIC50 |  | 14 strains | 2 µg/mL
O=C(O)c1cn(C2CC2)c2c(F)c(N3CCC(NC4CC4)C3)c(F)cc2c1=O | MIC |  | 1915112 | 2 µg/mL
CCC1CN(c2cc3c(cc2F)c(=O)c(C(=O)O)cn3C2CC2)CCN1 | MIC50 |  | 14 strains | 2 µg/mL
CO[C@H]1/C=C/O[C@@]2(C)Oc3c(C)c(O)c4c(O)c(c(/C=N/N5CCN(C)CC5)c(O)c4c3C2=O)NC(=O)/C(C)=C\C=C\[C@H](C)[C@H](O)[C@@H](C)[C@@H](O)[C@@H](C)[C@H](OC(C)=O)[C@@H]1C | MIC |  | 1124 | 8 µg/mL
CNC1CCN(c2c(F)cc3c(=O)c(C(=O)O)cn(C4CC4)c3c2F)C1 | MIC |  | 1760694 | 8 µg/mL
CC(C)N1CCN(c2nc3c(cc2F)c(=O)c(C(=O)O)cn3C2CC2)CC1 | MIC90 |  | 14 strains | 16 µg/mL
O=C(O)c1cn(C2CC2)c2c(F)c(N3CCNCC3)c(F)cc2c1=O | MIC |  | 1760694 | 4 µg/mL
CO[C@H]1/C=C/O[C@@]2(C)Oc3c(C)c(O)c4c(O)c(c(/C=N/N5CCN(C)CC5)c(O)c4c3C2=O)NC(=O)/C(C)=C\C=C\[C@H](C)[C@H](O)[C@@H](C)[C@@H](O)[C@@H](C)[C@H](OC(C)=O)[C@@H]1C | MIC |  | 804/HIV+ | 2 µg/mL
NC[C@H]1O[C@H](O[C@H]2[C@H](O)[C@@H](O[C@H]3O[C@H](CO)[C@@H](O)[C@H](N)[C@H]3O)[C@H](N)C[C@@H]2N)[C@H](O)[C@@H](O)[C@@H]1O | MIC |  | N-316 (HIV-) | 2 µg/mL
CCC1CN(c2cc3c(cc2F)c(=O)c(C(=O)O)cn3-c2ccc(F)cc2F)CCN1 | MIC90 |  | 14 strains | 32 µg/mL
CCN(CC)CC1CCN(c2c(F)cc3c(=O)c(C(=O)O)cn(C4CC4)c3c2F)C1 | MIC |  | PI12/39 | 2 µg/mL
NC[C@@H]1O[C@H](O[C@H]2[C@@H](O)[C@H](O[C@@H]3[C@@H](O)[C@H](N)C[C@H](N)[C@H]3O[C@H]3O[C@H](CO)[C@@H](O)C[C@H]3N)O[C@@H]2CO)[C@H](N)[C@@H](O)[C@@H]1O[C@H]1O[C@H](CO)[C@@H](O)[C@H](O)[C@@H]1O | MIC |  | Isolate 135 | 50 µg/mL
NNC(=O)c1ccncc1 | MIC |  | 13011 (serotype 16) | 1.6 µg/mL
O=C(O)c1cn(C2CC2)c2c(F)c(N3CCS(=O)(=O)CC3)c(F)cc2c1=O | MIC50 |  | 14 strains | 2 µg/mL
CN[C@@H]1[C@@H](O)[C@@H](O[C@@H]2[C@@H](O)[C@H](O[C@H]3O[C@H](CN)CC[C@H]3N)[C@@H](N)C[C@H]2N)OC[C@]1(C)O | MIC |  | Isolate 53 | 1.56 µg/mL
O=C(O)c1cn(C2CC2)c2c(F)c(N3CC4C(CO)C4C3)c(F)cc2c1=O | MIC |  | 1172733 | 8 µg/mL
NC[C@H]1O[C@H](O[C@H]2[C@H](O)[C@@H](O[C@H]3O[C@H](CO)[C@@H](O)[C@H](N)[C@H]3O)[C@H](N)C[C@@H]2N)[C@H](N)[C@@H](O)[C@@H]1O | MIC |  | TMC 1469 | 1.56 µg/mL
CC[C@@H](CO)NCCN[C@@H](CC)CO | MIC |  | 13887 (serotype 14) | 0.8 µg/mL
NC[C@H]1O[C@H](O[C@H]2[C@H](O)[C@@H](O[C@H]3O[C@H](CO)[C@@H](O)[C@H](N)[C@H]3O)[C@H](N)C[C@@H]2N)[C@H](O)[C@@H](O)[C@@H]1O | MIC |  | Isolate C-37 | 400 µg/mL
CO[C@H]1/C=C/O[C@@]2(C)Oc3c(C)c(O)c4c(O)c(c5c(c4c3C2=O)NC2(CCN(CC(C)C)CC2)N=5)=NC(=O)/C(C)=C\C=C\[C@H](C)[C@H](O)[C@@H](C)[C@@H](O)[C@@H](C)[C@H](OC(C)=O)[C@@H]1C | MBC |  | 3350-4 | 1 µg/mL
CC1CN(c2cc3c(cc2F)c(=O)c(C(=O)O)cn3-c2ccc(F)cc2F)CC(C)N1 | MIC90 |  | 14 strains | 8 µg/mL
O=C(O)c1cn(C2CC2)c2c(F)c(N3CCC(n4ccnc4)C3)c(F)cc2c1=O | MIC |  | 1988557 | 8 µg/mL
NC[C@@H]1O[C@H](O[C@H]2[C@@H](O)[C@H](O[C@@H]3[C@@H](O)[C@H](N)C[C@H](N)[C@H]3O[C@H]3O[C@H](CO)[C@@H](O)[C@H](O)[C@H]3N)O[C@@H]2CO)[C@H](N)[C@@H](O)[C@@H]1O | MIC |  | 101 | <1.56 µg/mL
CO[C@H]1/C=C/O[C@@]2(C)Oc3c(C)c(O)c4c(O)c(c(/C=N/N5CCN(C)CC5)c(O)c4c3C2=O)NC(=O)/C(C)=C\C=C\[C@H](C)[C@H](O)[C@@H](C)[C@@H](O)[C@@H](C)[C@H](OC(C)=O)[C@@H]1C | MIC50 |  | 87 isolates | 0.9 µg/mL
CC(C)N1CCN(c2nc3c(cc2F)c(=O)c(C(=O)O)cn3C(C)(C)C)CC1 | MIC90 |  | 14 strains | 4 µg/mL
CN(C)C1CCN(c2c(F)cc3c(=O)c(C(=O)O)cn(C4CC4)c3c2F)C1 | MIC90 |  | 14 strains | 2 µg/mL
CC1COc2c(N3CCN(C)CC3)c(F)cc3c(=O)c(C(=O)O)cn1c23 | MIC |  | 969/HIV- | >16 µg/mL
C[C@@H]1CN(c2c(F)c(N)c3c(=O)c(C(=O)O)cn(C4CC4)c3c2F)C[C@H](C)N1 | MIC | broth dilution | 20 | 2 µg/mL
CC(C)N1CCN(c2c(F)cc3c(=O)c(C(=O)O)cn(C4CC4)c3c2Cl)CC1 | MIC90 |  | 14 strains | 8 µg/mL